Pooled drug test results. Numbers come from NIAID ChemDB, via PubChem.

All rows: whole-cell or culture tests; species: Aspergillus niger

Conditions beyond the fields shown may differ between rows. Blank or dashed fields: not listed here. A number after MIC or MFC names an inhibition level or a share of isolates. Two numbers with a dash give a range or band.

{"structure": "COc1cccc(COc2cccc3cccnc23)c1", "measure": "MIC", "read by": "broth dilution", "result": "12.5 µg/mL"}
{"structure": "O=C1CCC(c2ccccc2)C(=O)N1CCCCN1CCN(c2ccc(F)cc2)CC1", "strain": "DSM 1988", "measure": "MIC", "result": ">100 µM"}
{"structure": "Cc1ccc(-c2cc(-c3ccc4oc(=O)c(-c5ccccc5)c(C)c4c3)nc3c2Cc2ccccc2-3)cc1", "strain": "MTCC 282", "measure": "MIC", "read by": "broth dilution / turbidity", "result": "1000 µg/mL"}
{"structure": "Cc1ccc(N2NOC(=O)C2S(=O)(=O)Nc2ccc(-n3c(-c4ccc(Cl)cc4)nc4ccccc4c3=O)cc2)cc1", "strain": "MTCC 282", "measure": "MIC", "read by": "broth dilution", "result": "250 µg/mL"}
{"structure": "Cc1c(-c2ccccc2)c(=O)oc2ccc(-c3cc(-c4ccc(F)cc4)c4c(n3)-c3ccccc3C4)cc12", "strain": "MTCC 282", "measure": "MIC", "read by": "broth dilution / turbidity", "result": "250 µg/mL"}
{"structure": "COc1ccc(C2=[N+]([O-])c3ccccc3C2=O)cc1", "measure": "MFC", "result": ">500 µg/mL"}
{"structure": "Cc1c(-c2ccccc2)c(=O)oc2ccc(-c3cc(-c4ccccc4)c4oc5ccccc5c4n3)cc12", "strain": "MTCC 282", "measure": "MIC", "read by": "broth dilution / turbidity", "result": "500 µg/mL"}
{"structure": "Cn1c(=O)cc(Oc2nc(Nc3ccc(C#N)cc3)nc(Nc3nc4ccc(F)cc4s3)n2)c2ccccc21", "strain": "MTCC 2825", "measure": "MIC", "read by": "agar", "result": "25 µg/mL"}
{"structure": "FC(F)(F)c1cccc([Se][Se]c2cccc(C(F)(F)F)c2)c1", "measure": "MIC", "read by": "broth dilution", "result": ">64 µg/mL"}
{"structure": "CC(C)=CCC/C(C)=C/CO", "strain": "IOA-3", "measure": "MIC", "read by": "broth dilution", "result": "144 µg/mL"}
{"structure": "O=C1C(c2ccccc2)=[N+]([O-])c2ccccc21", "measure": "MIC", "result": "62.5 µg/mL"}
{"structure": "Cc1c(-c2ccccc2)c(=O)oc2ccc(-c3cc(-c4ccc(F)cc4)c4oc5ccccc5c4n3)cc12", "strain": "MTCC 282", "measure": "MIC", "read by": "broth dilution / turbidity", "result": "250 µg/mL"}
{"structure": "O=C1CCC(c2ccccc2)C(=O)N1CCCN1CCN(c2ccccc2O)CC1", "strain": "DSM 1988", "measure": "MIC", "result": ">100 µM"}
{"structure": "CN(C)C1=NC(=O)/C(=C/c2ccc([N+](=O)[O-])cc2)S1", "strain": "ATCC 9029", "measure": "MIC100", "read by": "broth dilution", "result": ">250 µg/mL"}
{"structure": "N#[N+]c1nc(-c2ccc(F)cc2F)[nH]c1C(=O)N1CCCC1", "strain": "L32", "measure": "MIC", "result": ">200 µg/mL"}
{"structure": "C[C@@H]1O[C@@H](OC[C@H]2O[C@@H](Oc3c(-c4ccc(O)cc4)oc4cc(O)cc(O)c4c3=O)[C@H](O)[C@@H](O)[C@@H]2O)[C@H](O)[C@H](O)[C@H]1O", "measure": "MIC", "result": "160 µg/mL"}
{"structure": "C[C@H]1[C@H](O)[C@@H](C)/C=C/C=C/C=C/C=C/C=C/C=C/C=C/[C@H](O[C@@H]2O[C@H](C)[C@@H](O)[C@H](N)[C@@H]2O)C[C@@H]2O[C@](O)(C[C@@H](O)C[C@@H](O)CC[C@H](O)[C@@H](O)C[C@@H](O)CC(=O)O[C@H]1C)C[C@H](O)[C@H]2C(=O)O", "measure": "MIC50", "result": "0.5–1 µg/mL"}
{"structure": "CCCc1nc([N+]#N)c(C(=O)N2CCCC2)[nH]1", "strain": "L32", "measure": "MIC", "result": ">200 µg/mL"}
{"structure": "C[C@H]1[C@H](O)[C@@H](C)/C=C/C=C/C=C/C=C/C=C/C=C/C=C/[C@H](O[C@@H]2O[C@H](C)[C@@H](O)[C@H](N)[C@@H]2O)C[C@@H]2O[C@](O)(C[C@@H](O)C[C@@H](O)CC[C@H](O)[C@@H](O)C[C@@H](O)CC(=O)O[C@H]1C)C[C@H](O)[C@H]2C(=O)O", "strain": "CCUG 18919", "measure": "MIC", "result": "8 µg/mL"}
{"structure": "Cc1ccc(N2NOC(=O)C2S(=O)(=O)Nc2nc3ccc(Cl)cc3s2)cc1", "strain": "MTCC 282", "measure": "MIC", "read by": "broth dilution", "result": "200 µg/mL"}
{"structure": "Cn1c(=O)cc(Oc2nc(Nc3ccc(C#N)cc3)nc(Sc3nc4ccccc4s3)n2)c2ccccc21", "strain": "MTCC 2825", "measure": "MIC", "read by": "agar", "result": "50 µg/mL"}
{"structure": "FC(F)(F)c1cc(COc2cccc3cccnc23)cc(C(F)(F)F)c1", "measure": "MIC", "read by": "broth dilution", "result": ">100 µg/mL"}
{"structure": "C[C@H]1[C@H](O)[C@@H](C)/C=C/C=C/C=C/C=C/C=C/C=C/C=C/[C@H](O[C@@H]2O[C@H](C)[C@@H](O)[C@H](N)[C@@H]2O)C[C@@H]2O[C@](O)(C[C@@H](O)C[C@@H](O)CC[C@H](O)[C@@H](O)C[C@@H](O)CC(=O)O[C@H]1C)C[C@H](O)[C@H]2C(=O)O", "strain": "A420", "measure": "MIC", "read by": "broth dilution", "result": "2–4 µg/mL"}
{"structure": "c1ccc([Se][Se]c2ccccc2)cc1", "measure": "MIC", "read by": "broth dilution", "result": "8–32 µg/mL"}
{"structure": "Oc1c(Br)ccc2cccnc12", "strain": "ATCC 1004", "measure": "MIC", "result": "3 µg/mL"}
{"structure": "O=C1CCC(c2ccccc2)C(=O)N1CCCCN1CCN(Cc2ccccc2)CC1", "strain": "DSM 1988", "measure": "MIC", "result": ">100 µM"}
{"structure": "Cc1ccc(N2NOC(=O)C2S(=O)(=O)Nc2ccc(-n3c(-c4cccc([N+](=O)[O-])c4)nc4ccccc4c3=O)cc2)cc1", "strain": "MTCC 282", "measure": "MIC", "read by": "broth dilution", "result": "500 µg/mL"}
{"structure": "Oc1c(Cl)ccc2cccnc12", "strain": "ATCC 1004", "measure": "MIC", "result": "2 µg/mL"}
{"structure": "N#[N+]c1nc(-c2ccccc2)[nH]c1C(=O)N1CCCC1", "strain": "L32", "measure": "MIC", "result": ">200 µg/mL"}
{"structure": "C[C@@H]1[C@H](O)[C@@H](C)/C=C/C=C/CC/C=C/C=C/C=C/C=C/C(O[C@H]2O[C@H](C)[C@@H](O)[C@H](N)[C@@H]2O)CC2O[C@](O)(CC(O)C(O)CCC(O)CC(O)CC(O)CC(=O)O[C@H]1C)CC(O)C2C(=O)O", "strain": "ATCC 16404", "measure": "MFC99.9", "read by": "broth dilution", "result": "0.78 µg/mL"}
{"structure": "Oc1cc(Cl)cc2cccnc12", "strain": "ATCC 1004", "measure": "MIC", "result": "3 µg/mL"}
{"structure": "C[C@@H](c1nc(-c2ccc(C#N)cc2)cs1)[C@](O)(Cn1cncn1)c1cc(F)ccc1F", "measure": "MIC50", "result": "0.5–2 µg/mL"}
{"structure": "N#[N+]c1nc(-c2ccc(Cl)cc2)[nH]c1C(=O)N1CCCC1", "strain": "L32", "measure": "MIC", "result": "25 µg/mL"}
{"structure": "O=C1C(c2ccccn2)=[N+]([O-])c2ccccc21", "measure": "MIC", "result": "15.63 µg/mL"}
{"structure": "CCC(C)n1ncn(-c2ccc(N3CCN(c4ccc(OC[C@H]5CO[C@](Cn6cncn6)(c6ccc(Cl)cc6Cl)O5)cc4)CC3)cc2)c1=O", "strain": "ATCC 6275", "measure": "MIC", "read by": "broth dilution", "result": "100 µg/mL"}
{"structure": "N#[N+]c1nc(-c2ccc([N+](=O)[O-])cc2)[nH]c1C(=O)N1CCCC1", "strain": "L32", "measure": "MIC", "result": "200 µg/mL"}
{"structure": "CC(=O)c1cn(Cc2nnn(CC(=O)NN)n2)c2ccccc12", "measure": "MIC99", "read by": "agar", "result": "140 µg/mL"}
{"structure": "N#[N+]c1nc(-c2cccc(Cl)c2)[nH]c1C(=O)N1CCCC1", "strain": "L32", "measure": "MIC", "result": ">200 µg/mL"}
{"structure": "Oc1cccc2cccnc12", "strain": "ATCC 1004", "measure": "MIC", "result": "20 µg/mL"}
{"structure": "O=C1C(c2ccc(Cl)cc2)=[N+]([O-])c2cc[n+]([O-])cc21", "measure": "MFC", "result": ">500 µg/mL"}
{"structure": "Cc1ccc(N2NOC(=O)C2S(=O)(=O)Nc2nc(-c3ccc(Cl)cc3Cl)cs2)cc1", "strain": "MTCC 282", "measure": "MIC", "read by": "broth dilution", "result": "500 µg/mL"}
{"structure": "C[C@H]1[C@H](O)[C@@H](C)/C=C/C=C/C=C/C=C/C=C/C=C/C=C/[C@H](O[C@@H]2O[C@H](C)[C@@H](O)[C@H](N)[C@@H]2O)C[C@@H]2O[C@](O)(C[C@@H](O)C[C@@H](O)CC[C@H](O)[C@@H](O)C[C@@H](O)CC(=O)O[C@H]1C)C[C@H](O)[C@H]2C(=O)O", "strain": "VPC 156/96", "measure": "MIC", "read by": "broth dilution", "result": "1.95 µg/mL"}
{"structure": "O=C1CCC(c2ccccc2)C(=O)N1CCCCN1CCN(c2ccccc2)CC1", "strain": "DSM 1988", "measure": "MIC", "result": ">100 µM"}
{"structure": "CN(C/C=C/C#CC(C)(C)C)Cc1cccc2ccccc12", "strain": "ATCC 9029", "measure": "MIC100", "read by": "broth dilution", "result": "1.56 µg/mL"}
{"structure": "C[C@@H]1[C@H](O)[C@@H](C)/C=C/C=C/CC/C=C/C=C/C=C/C=C/[C@H](O[C@@H]2O[C@H](C)[C@@H](O)[C@H](N)[C@@H]2O)C[C@@H]2O[C@](O)(C[C@@H](O)[C@H](O)CC[C@@H](O)C[C@@H](O)C[C@@H](O)CC(=O)O[C@H]1C)C[C@H](O)[C@H]2C(=O)O", "measure": "MIC", "result": "0.75 µg/mL"}
{"structure": "COc1ccc(-c2cc(-c3ccc4oc(=O)c(-c5ccccc5)c(C)c4c3)nc3c2CCc2ccccc2-3)cc1OC", "strain": "MTCC 282", "measure": "MIC", "read by": "broth dilution / turbidity", "result": "1000 µg/mL"}
{"structure": "Fc1ccc(COc2cccc3cccnc23)cc1", "measure": "MIC", "read by": "broth dilution", "result": "12.5 µg/mL"}
{"structure": "O=C1C(c2ccc(Cl)cc2)=[N+]([O-])c2ccccc21", "measure": "MIC", "result": ">12.5 µg/mL"}
{"structure": "Cc1ccc(N2NOC(=O)C2S(=O)(=O)Nc2nc(-c3ccc(Cl)cc3)cs2)cc1", "strain": "MTCC 282", "measure": "MIC", "read by": "broth dilution", "result": "250 µg/mL"}
{"structure": "O=C1c2cc(CO)cc(O)c2C(=O)c2cc(O)cc(O)c21", "strain": "MTCC 1344", "measure": "MIC", "read by": "broth dilution", "result": "32.25 µg/mL"}
{"structure": "Brc1cccc(COc2cccc3cccnc23)c1", "measure": "MIC", "read by": "broth dilution", "result": "3.125 µg/mL"}
{"structure": "CCC(C)n1ncn(-c2ccc(N3CCN(c4ccc(OC[C@H]5CO[C@](Cn6cncn6)(c6ccc(Cl)cc6Cl)O5)cc4)CC3)cc2)c1=O", "measure": "MIC90", "result": "2 µg/mL"}
{"structure": "Cc1ccc(N2NOC(=O)C2S(=O)(=O)Nc2nc3ccc(F)cc3s2)cc1", "strain": "MTCC 282", "measure": "MIC", "read by": "broth dilution", "result": "500 µg/mL"}
{"structure": "Nc1[nH]c(=O)ncc1F", "measure": "MIC50", "result": ">64 µg/mL"}
{"structure": "O=C1C(c2ccc(Oc3ccccc3)cc2)=[N+]([O-])c2ccccc21", "measure": "MIC", "result": ">125 µg/mL"}
{"structure": "CN(C)C1=NC(=O)/C(=C/c2ccc(F)cc2)S1", "strain": "ATCC 9029", "measure": "MIC100", "read by": "broth dilution", "result": ">250 µg/mL"}
{"structure": "Oc1ccc(Cl)c2cccnc12", "strain": "ATCC 1004", "measure": "MIC", "result": "2 µg/mL"}
{"structure": "FC(F)(F)Oc1ccc(COc2cccc3cccnc23)cc1", "measure": "MIC", "read by": "broth dilution", "result": ">100 µg/mL"}
{"structure": "Cc1ccc(-c2cc(-c3ccc4oc(=O)c(-c5ccccc5)c(C)c4c3)nc3c2oc2ccccc23)cc1", "strain": "MTCC 282", "measure": "MIC", "read by": "broth dilution / turbidity", "result": ">1000 µg/mL"}
{"structure": "COc1ccc(-c2csc(NS(=O)(=O)C3C(=O)ONN3c3ccc(C)cc3)n2)cc1", "strain": "MTCC 282", "measure": "MIC", "read by": "broth dilution", "result": "1000 µg/mL"}
{"structure": "C[C@@H]1[C@H](O)[C@@H](C)/C=C/C=C/CC/C=C/C=C/C=C/C=C/C(O[C@H]2O[C@H](C)[C@@H](O)[C@H](N)[C@@H]2O)CC2O[C@](O)(CC(O)C(O)CCC(O)CC(O)CC(O)CC(=O)O[C@H]1C)CC(O)C2C(=O)O", "strain": "MTCC 282", "measure": "MIC", "result": "100 µg/mL"}
{"structure": "O=C1C(c2ccc(Cl)cc2)=[N+]([O-])c2cccnc21", "measure": "MIC", "result": "31.25 µg/mL"}
{"structure": "CC(=O)OCCOCCn1nnc(Cn2cc(C(C)=O)c3ccccc32)n1", "measure": "MIC99", "read by": "agar", "result": "160 µg/mL"}

For reference, 7 entries again:

| structure | strain | measure | read by | result |
|---|---|---|---|---|
| CC(=O)OCCOCCn1nnc(Cn2cc(C(C)=O)c3ccccc32)n1 | - | MIC99 | agar | 160 µg/mL |
| Cc1ccc(N2NOC(=O)C2S(=O)(=O)Nc2nc3ccc(Cl)cc3s2)cc1 | MTCC 282 | MIC | broth dilution | 200 µg/mL |
| Cc1c(-c2ccccc2)c(=O)oc2ccc(-c3cc(-c4ccc(F)cc4)c4c(n3)-c3ccccc3C4)cc12 | MTCC 282 | MIC | broth dilution / turbidity | 250 µg/mL |
| CCC(C)n1ncn(-c2ccc(N3CCN(c4ccc(OC[C@H]5CO[C@](Cn6cncn6)(c6ccc(Cl)cc6Cl)O5)cc4)CC3)cc2)c1=O | ATCC 6275 | MIC | broth dilution | 100 µg/mL |
| Cc1ccc(N2NOC(=O)C2S(=O)(=O)Nc2ccc(-n3c(-c4cccc([N+](=O)[O-])c4)nc4ccccc4c3=O)cc2)cc1 | MTCC 282 | MIC | broth dilution | 500 µg/mL |
| FC(F)(F)c1cc(COc2cccc3cccnc23)cc(C(F)(F)F)c1 | - | MIC | broth dilution | >100 µg/mL |
| CC(C)=CCC/C(C)=C/CO | IOA-3 | MIC | broth dilution | 144 µg/mL |